Measured values published in ChEMBL document CHEMBL5029184, “Colloidal Aggregators in Biochemical SARS-CoV-2 Repurposing Screens” (J Med Chem, 2021).

Assay: Inhibition of SARS CoV2 C-terminal His6-tagged 3CL protease (3264 to 3569 residues) expressed in Escherichia coli BL21 DE3 using rr-K(MCA)-ATLQAIAS-K(DNP)-COOH preincubated for 1 hr followed by substrate addition and measured after 1 hr in presence of 0.05% Tween-20
Set-up: species or system Severe acute respiratory syndrome coronavirus 2
Outline: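 Purified recombinant 3CL-Pro at 50 nM final with quenched fluorogenic peptide at 10 μM final (KM), in 20 mM Tris, 150 mM NaCl, 1 mM EDTA, 1 mM DTT, 0.05% Tween-20, pH 7.4. Drug and enzyme were preincubated 1 h at 37 °C, then substrate was added and fluorescence followed 1 h.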

In the case of `O=C1c2c(O)cccc2Cc2cccc(O)c21` [ANTHRALIN], the IC50 is reported as greater than 200 µM.
